Laboratory results taken from patent US12569565B2, “Compositions and methods for the treatment of viral infections” (Cidara Therapeutics, Inc., priority 2018, dated 2026).

Assays:
A/WSN/1933 H1N1 = assay: Serial passage for selection of resistant influenza viruses, MDCK cells; conditions: baloxavir 4 nM, oseltamivir 50 nM
[1] = tested on: A/California/04/09/H1N1 pdm; assay: Serial passage for selection of resistant influenza viruses, A549 cells; conditions: baloxavir 0.5 nM, oseltamivir 200 nM

SMILES	passage after which titers increased to levels similar to PBS control (A/WSN/1933 H1N1)	passage after which titers increased to levels similar to PBS control [1]
CCOC(=O)C1=C[C@@H](OC(CC)CC)[C@H](NC(C)=O)[C@@H](N)C1	10	11
O=C1c2c(O)c(=O)ccn2N([C@@H]2c3ccccc3SCc3c2ccc(F)c3F)[C@@H]2COCCN12	5	5
